“And” between values parts separate entries of the source, which are not always exact repeats. Identical values can stand only once.
Assays:
Assay in all cases: cell-based or functional assay
[1] = biological target: TTX-sensitive Nav channels in mouse DRG neurons
[2] = biological target: human voltage-gated sodium channel Nav1.4 (human) (UniProt P35499)
[3] = biological target: human voltage-gated sodium channel Nav1.5 (human) (UniProt Q14524)
[4] = biological target: human voltage-gated sodium channel Nav1.7 (human) (UniProt Q15858)
[5] = biological target: human voltage-gated sodium channel Nav1.3 (human) (UniProt Q9NY46)
[6] = biological target: human voltage-gated sodium channel Nav1.3 (human), Q9NY46
[7] = biological target: human voltage-gated sodium channel Nav1.4 (human), P35499
[8] = biological target: human voltage-gated sodium channel Nav1.5 (human), Q14524
[9] = biological target: human voltage-gated sodium channel Nav1.7 (human), Q15858

Row | Molecule | IC50 (IonWorks Quattro) [4] [µM] | IC50 (IonWorks Quattro) [6] [µM] | IC50 (IonWorks Quattro) [7] [µM] | IC50 (IonWorks Quattro) [8] [µM] | IC50 (IonWorks Quattro) [9] [µM] | other results
1 | Pra-[Nle6]JzTx-V(1-29) (peptide; modification not given) | 0.008 | – | – | – | – | 1.x/1.7, partially inactivated [1]: 6340 fold; PX hNav1.4 Tonic IC50 [2]: 0.004 µM and 0.0025 µM; PX hNav1.5 Tonic IC50 [3]: 0.97 µM and 0.7 µM
2 | [Glu20, Trp29]JzTx-V(1-29) (peptide; modification not given) | – | – | – | – | – | 1.x/1.7, partially inactivated [1]: 1210 fold and 917 fold
3 | [Glu20]JzTx-V(1-29) (peptide; modification not given) | 0.36 | – | – | – | – | IC50 (IonWorks Quattro) [5]: > 5 µM; IC50 (IonWorks Quattro) [2]: > 5 µM; Nav1.4/Nav1.7 (ratio of IC50s) [2]: 14; PX hNav1.4 Tonic IC50 [2]: 1.25 µM; IC50 (IonWorks Quattro) [3]: 9.8 µM; PX hNav1.5 Tonic IC50 [3]: 9.33 µM; PX hNav1.7 Tonic IC50 [4]: 0.007 µM
4 | [Glu20]JzTx-V(1-29)-Trp (peptide; modification not given) | 0.17 | – | – | – | – | IC50 (IonWorks Quattro) [5]: > 5 µM; IC50 (IonWorks Quattro) [2]: > 5 µM; Nav1.4/Nav1.7 (ratio of IC50s) [2]: 30; IC50 (IonWorks Quattro) [3]: 11.1 µM
5 | [Gly20]JzTx-V(1-29) (peptide; modification not given) | 0.06 | – | – | – | – | IC50 (IonWorks Quattro) [5]: 0.98 µM; IC50 (IonWorks Quattro) [2]: 1.9 µM; Nav1.4/Nav1.7 (ratio of IC50s) [2]: 29; PX hNav1.4 Tonic IC50 [2]: 0.197 µM; IC50 (IonWorks Quattro) [3]: 9.8 µM; PX hNav1.5 Tonic IC50 [3]: 14.1 µM; PX hNav1.7 Tonic IC50 [4]: 0.0078 µM
6 | [Ile20]JzTx-V(1-29) (peptide; modification not given) | 0.09 | – | – | – | – | IC50 (IonWorks Quattro) [5]: 2.2 µM; IC50 (IonWorks Quattro) [2]: 1.3 µM; Nav1.4/Nav1.7 (ratio of IC50s) [2]: 15; IC50 (IonWorks Quattro) [3]: 8.6 µM
7 | [Leu20]JzTx-V(1-29) (peptide; modification not given) | 0.07 | – | – | – | – | IC50 (IonWorks Quattro) [5]: 2.51 µM; IC50 (IonWorks Quattro) [2]: 1 µM; Nav1.4/Nav1.7 (ratio of IC50s) [2]: 14; IC50 (IonWorks Quattro) [3]: 8.3 µM
8 | [Ser20]JzTx-V(1-29) (peptide; modification not given) | 0.03 | – | – | – | – | IC50 (IonWorks Quattro) [5]: 0.29 µM; IC50 (IonWorks Quattro) [2]: 0.4 µM; Nav1.4/Nav1.7 (ratio of IC50s) [2]: 17; IC50 (IonWorks Quattro) [3]: 9.2 µM
9 | [Tyr20]JzTx-V(1-29) (peptide; modification not given) | 0.09 | – | – | – | – | IC50 (IonWorks Quattro) [5]: > 5 µM; IC50 (IonWorks Quattro) [2]: 4 µM; Nav1.4/Nav1.7 (ratio of IC50s) [2]: 43; PX hNav1.4 Tonic IC50 [2]: 1.57 µM; IC50 (IonWorks Quattro) [3]: 10.8 µM; PX hNav1.5 Tonic IC50 [3]: > 10 µM; PX hNav1.7 Tonic IC50 [4]: 0.0059 µM
10 | [Val20]JzTx-V(1-29) (peptide; modification not given) | 0.1 | – | – | – | – | IC50 (IonWorks Quattro) [5]: 3.37 µM; IC50 (IonWorks Quattro) [2]: 3 µM; Nav1.4/Nav1.7 (ratio of IC50s) [2]: 31; IC50 (IonWorks Quattro) [3]: 7.1 µM
11 | YCQKWMETCDSKRACCEGLECKLWCRKYI (modifications not checked) [[Glu7,20;Tyr28]JzTx-V(1-29)] | – | > 7 | > 7 | > 7 | > 7 | –
12 | YCQKLMWTCDSKRACCEGLECKLWCRKYI (modifications not checked) [[Leu5;Glu20;Tyr28]JzTx-V(1-29)] | – | > 5 | > 5 | > 5 | > 5 | –
13 | YCQKWMNTCDSKRACCEGLECKLWCRKYI (modifications not checked) [[Asn7;Glu20;Tyr28]JzTx-V(1-29)] | – | > 7 | – | > 7 | 5 | Nav1.4/Nav1.7 (ratio of IC50s) [7]: 1
14 | YCQKYMWTCDSKRACCEGLECKLWCRKYI (modifications not checked) [[Tyr5,28;Glu20]JzTx-V(1-29)] | – | > 5 | > 5 | > 5 | – | –
15 | YCQKVMWTCDSKRACCEGLECKLWCRKYI (modifications not checked) [[Nva5;Glu20;Tyr28]JzTx-V(1-29)] | – | > 5 | > 5 | > 5 | – | –
16 | YCQKWLWTCDSKRGCCEGLRCKLWCRKII (modifications not checked) [[Nle6,Pra14]JzTx-V(1-29)] | – | 0.06 | 0.09 | > 7 | 0.07 | Nav1.4/Nav1.7 (ratio of IC50s) [7]: 1
17 | YCQKWMWACDSKRACCEGLECKLWCRKII (modifications not checked) [[Atz(NPEG10)8;Glu20]JzTx-V(1-29)] | – | > 5 | > 5 | – | – | Nav1.4/Nav1.7 (ratio of IC50s) [7]: 1
18 | YCQKWVWTCDSKRACCEGLECKLWCRKII (modifications not checked) [[Nva6;Glu20]JzTx-V(1-29)] | – | > 5 | > 5 | 9.2 | 0.69 | Nav1.4/Nav1.7 (ratio of IC50s) [7]: 7
19 | YCQKKMWTCDSKRACCEGLECKLWCRKYI (modifications not checked) [[Lys5;Glu20;Tyr28]JzTx-V(1-29)] | – | > 5 | > 5 | > 5 | > 5 | –
20 | YCQKWMKTCDSKRACCEGLECKLWCRKYI (modifications not checked) [[Lys7;Glu20;Tyr28]JzTx-V(1-29)] | – | > 7 | > 7 | > 7 | – | –
21 | YCQKNMWTCDSKRACCEGLECKLWCRKYI (modifications not checked) [[Asn5;Glu20;Tyr28]JzTx-V(1-29)] | – | > 5 | > 5 | > 5 | > 5 | –
22 | YCQKFMWTCDSKRACCEGLECKLWCRKYI (modifications not checked) [[Phe5;Glu20;Tyr28]JzTx-V(1-29)] | – | > 5 | > 5 | > 5 | – | –
23 | YCQKWMWTCDSKRACCAGLECKLWCRKII (modifications not checked) [[Atz(NPEG10)17;Glu20]JzTx-V(1-29)] | – | > 5 | > 5 | – | – | Nav1.4/Nav1.7 (ratio of IC50s) [7]: 28
24 | YCQKVMWTCDSKRACCEGLECKLWCRKYI (modifications not checked) [[Val5;Glu20;Tyr28]JzTx-V(1-29)] | – | > 5 | > 5 | > 5 | – | –
25 | YCQKWLWTCDSKRACCEGLRCALWCRKII (modifications not checked) [[Nle6;Atz(NPEG10)22]JzTx-V(1-29)] | – | > 7 | > 7 | > 7 | > 7 | –
26 | YCQKEMWTCDSKRACCEGLECKLWCRKYI (modifications not checked) [[Glu5,20;Tyr28]JzTx-V(1-29)] | – | > 7 | > 7 | > 7 | > 7 | –
27 | YCQKWMSTCDSKRACCEGLECKLWCRKYI (modifications not checked) [[Ser7;Glu20;Tyr28]JzTx-V(1-29)] | – | > 7 | > 7 | > 7 | – | –

Source: patent publication US20150023988A1
